Earlier results as cited in patent US9745266B2 (THE REGENTS OF THE UNIVERSITY OF COLORADO, A BODY CORPORATE, priority 2013, dated 2017).

System: S. aureus
Settings: CLSI Performance Standards for Antimicrobial Testing; cited from earlier work

SMILES	sensitive range
C[C@@H](O)[C@H]1C(=O)N2C(C(=O)O)=C(S[C@@H]3CN[C@H](C(=O)N(C)C)C3)[C@H](C)[C@H]12 [meropenem]	≦4 μg/ml
CC[C@H]1OC(=O)[C@H](C)[C@@H](O[C@H]2C[C@@](C)(OC)[C@@H](O)[C@H](C)O2)[C@H](C)[C@@H](O[C@@H]2O[C@H](C)C[C@H](N(C)C)[C@H]2O)[C@](C)(O)C[C@@H](C)C(=O)[C@H](C)[C@@H](O)[C@]1(C)O [erythromycin]	≦0.5 μg/ml
Cc1onc(-c2ccccc2)c1C(=O)N[C@@H]1C(=O)N2[C@@H]1SC(C)(C)[C@@H]2C(=O)O [oxacillin]	≦2 μg/ml
